Measured values from several laboratories, pooled; numbers as filed in NIAID ChemDB.

Common to all: growth or infection tests; organism: HIV-1; cell line: C8166; endpoint: EC50

ECn: concentration that inhibits the pathogen or its effect by n%. An empty or dashed field is not shown. Conditions beyond the fields shown may differ between rows. a–b is a range or a potency band.

SMILES | strain | changes | method | value
Cc1ccccc1Sc1c(C(=O)NNCCO)[nH]c2ccc(Cl)cc12 | IIIB |  | cytopathic effect / MTT | 0.3 µM
Nc1nc(=O)n([C@@H]2CC[C@H](CO)O2)cc1F | RF |  | p24 | 0.026 µM
O=C(O)[C@H]1O[C@@H](Oc2cc3oc(-c4ccc(O)cc4)cc(=O)c3c(O)c2O)[C@H](O)[C@@H](O)[C@@H]1O | IIIB |  | syncytia | 26 µM
Cc1cccc(S(=O)(=O)c2c(C(=O)NCCO)[nH]c3ccc(Cl)cc23)c1 | IIIB |  | cytopathic effect / MTT | 0.009 µM
CCCCCCCCC(=O)O[C@@]12[C@H](OC(=O)/C=C/c3ccc(F)cc3)[C@@H](C)[C@@]3(O)[C@@H](C=C(CO)C[C@]4(O)C(=O)C(C)=C[C@@H]34)[C@@H]1C2(C)C | IIIB |  | syncytia / visual reading | 0.007 µM
Nc1ccn([C@@H]2CC[C@H](CO)O2)c(=O)n1 | RF |  | p24 | 23.6 µM
CCN1c2ncc(CCOc3ccc(NC(=O)c4ccc(C(=O)O)cn4)cc3C)cc2C(=O)N(C)c2cccnc21 |  | RT-K103N Y181C | p24 | >0.05 µM
CCOP(=O)(N[C@@H](CC(C)C)C(=O)OC)OC[C@H]1O[C@@H](n2cc(C)c(=O)[nH]c2=O)C[C@@H]1N=[N+]=[N-] | RF |  | ELISA | 30 µM
CCCCCCCC/C=C\CCCCCCCCOP(=O)([O-])OCC[NH2+]C |  |  | antigen | 10 µM
COc1ccc(S(=O)(=O)Oc2ccc(N=Nc3ccc(N=Nc4ccc(OS(=O)(=O)c5ccc(OC)cc5)c5ncccc45)cc3)c3cccnc23)cc1 | IIIB |  | syncytia | 3.51 µg/mL
Cc1ccc(S(=O)(=O)c2c(C(=O)NCCO)[nH]c3ccc(Cl)cc23)cc1 | IIIB |  | cytopathic effect / MTT | 0.085 µM
O=[N+]([O-])c1ccc(S(=O)(=O)Oc2ccc(N=Nc3ccc(N=Nc4ccc(OS(=O)(=O)c5ccc([N+](=O)[O-])cc5)c5ncccc45)cc3)c3cccnc23)cc1 | IIIB |  | syncytia | 4.03 µg/mL
COc1cc([C@H]2OC[C@@H]3[C@H]2CO[C@@H]3c2cc(OC)c(O)c(OC)c2)cc(OC)c1O | IIIB |  | MTT | >200 µg/mL
Nc1nc(=O)n([C@H]2CC[C@@H](CO)O2)cc1F | RF |  | syncytia | 0.022 µM
CCN1c2ncc(CCOc3ccc(-n4cc(C(=O)O)nn4)cc3C)cc2C(=O)N(C)c2cccnc21 | IIIB |  | p24 | >0.05 µM
CCOP(=O)(N[C@@H](C)C(=O)OCc1ccccc1)OC[C@H]1O[C@@H](n2cc(C)c(=O)[nH]c2=O)C[C@@H]1N=[N+]=[N-] | RF |  | ELISA | 3 µM
O=S(=O)(Oc1ccc(N=Nc2ccc(N=Nc3ccc(OS(=O)(=O)c4ccc(Br)cc4)c4ncccc34)cc2)c2cccnc12)c1ccc(Br)cc1 | IIIB |  | syncytia | 17.11 µg/mL
CC1=C[C@H]2[C@@]3(O)[C@H](C)[C@@H](O)[C@]4(OC(=O)CCc5ccccc5)[C@H]([C@@H]3C=C(CO)C[C@]2(O)C1=O)C4(C)C | IIIB |  | p24 / ELISA | 11.14 µM
CCOCn1c2c(c(=O)[nH]c1=O)CCCc1ccccc1-2 | IIIB |  |  | >5 µM
Cc1ccc(Sc2c(C(=O)NCCO)[nH]c3ccc(Cl)cc23)c(C)c1 | IIIB |  | cytopathic effect / MTT | 0.6 µM
CCN1c2ncc(CCOc3ccc(-c4ccc(C(O)C(=O)O)cc4)cc3C)cc2C(=O)N(C)c2cccnc21 |  | RT-K103N Y181C | p24 | 0.01–0.05 µM
C/C=C/c1ccc2oc(-c3ccc(O)c(OC)c3)c(C)c2c1 | IIIB |  | MTT | 23.6 µg/mL
Cc1ccccc1S(=O)(=O)c1c(C(=O)NCCO)[nH]c2ccc(Cl)cc12 | IIIB |  | cytopathic effect / MTT | 0.016 µM
CC/C=C\C/C=C\C/C=C\C/C=C\C/C=C\C/C=C\CCC(=O)O[C@@H]1[C@@H](C)[C@@]2(O)[C@@H](C=C(CO)C[C@]3(O)C(=O)C(C)=C[C@@H]23)[C@@H]2C(C)(C)[C@]12O | IIIB |  | p24 / ELISA | 5.06 µM
COC(=O)C[C@](O)(Cc1ccc(O)c(OC)c1)C(=O)OC | IIIB |  | MTT | >200 µg/mL
Cc1nnc(C(=O)NC(C)(C)c2nc(C(=O)NCc3ccc(F)cc3)c(O)c(=O)n2C)o1 | IIIB |  | syncytia | 0.005 µM
COc1cc(C[C@H]2COC(=O)[C@@H]2Cc2ccc(O[C@@H]3O[C@H](CO)[C@@H](O)[C@H](O)[C@H]3O)c(OC)c2)ccc1O | IIIB |  | syncytia | 16.36 µg/mL
CO[C@H]1C=C2C(C[C@H](O)[C@@H](O)C2(C)C)[C@]2(C)C(=O)C[C@]3(C)C([C@@](C)(O)C(=O)CCC(C)(C)OC(C)=O)[C@H](O)C[C@@]3(C)[C@H]12 |  |  | cytopathic effect / MTT | 94.2 µM
CCOP(=O)(N[C@@H](C)C(=O)OC)OC[C@H]1O[C@@H](n2cc(C)c(=O)[nH]c2=O)C[C@@H]1N=[N+]=[N-] | RF |  | ELISA | 3 µM
COc1ccc([C@]2(OC)O[C@@H](c3cc(OC)c(OC)c(OC)c3)[C@@]3(C)O[C@@]23C)cc1OC |  |  | cytopathic effect | 51.8 µg/mL
CCN1c2ncc(CCOc3cccc4c3ccc[n+]4[O-])cc2C(=O)N(C)c2ccc(Cl)nc21 | IIIB |  | p24 | 0.0004 µM
C=C(C)[C@@H]1CC[C@@H]2C(=CC[C@]3(C)[C@@H]([C@H](C)CC/C=C(/C)C(=O)O)CC[C@@]23C)[C@@]1(C)CCC(=O)O |  |  | cytopathic effect | 8.23 µg/mL
Cc1cn([C@H]2C[C@H](N=[N+]=[N-])[C@@H](CO)O2)c(=O)[nH]c1=O | IIIB |  | fluorescence | 0.19 µM
Nc1cc(Cl)nc2c1ncn2[C@H]1CC[C@@H](CO)O1 | IIIB |  |  | >1000 µM
CC1=C[C@H]2[C@@]3(O)[C@H](C)[C@@H](OC(=O)/C=C/c4ccc(F)cc4)[C@]4(OC(=O)CCCCCBr)[C@H]([C@@H]3C=C(CO)C[C@]2(O)C1=O)C4(C)C | IIIB |  | p24 / ELISA | 0.154 µM
Cc1ccc(S(=O)(=O)c2c(C(=O)NCCO)[nH]c3ccc(Cl)cc23)c(C)c1 | IIIB |  | cytopathic effect / MTT | 0.02 µM
COc1cc([C@@H]2c3cc(OC)c(OC)cc3C[C@@H](C)[C@H]2C)ccc1O |  |  | syncytia | 4.5 µM
CNc1cc(Cl)nc2c1ncn2[C@H]1CC[C@@H](CO)O1 | IIIB |  |  | 400 µM
COc1cc(C[C@H]2CO[C@H](c3ccc(O[C@@H]4O[C@H](O)[C@@H](O)[C@H](O)[C@H]4O)c(OC)c3)[C@H]2CO)ccc1O | IIIB |  | MTT | >200 µg/mL
CC1=C[C@H]2[C@@]3(O)[C@H](C)[C@@H](OC(=O)/C=C/c4ccccc4)[C@]4(OC(=O)/C=C/c5ccccc5)[C@H]([C@@H]3C=C(COC(=O)/C=C/c3ccccc3)C[C@]2(O)C1=O)C4(C)C | IIIB |  | p24 / ELISA | >200 µM
CCN1c2ncc(CCOc3ccc(-c4ncc[nH]4)cc3C)cc2C(=O)N(C)c2cccnc21 |  | RT-K103N Y181C | p24 | <0.01 µM
COC(=O)[C@H](C)NP(=O)(N[C@@H](C)C(=O)OC)OC[C@H]1O[C@@H](n2cc(C)c(=O)[nH]c2=O)C[C@@H]1N=[N+]=[N-] | RF |  | ELISA | 2 µM
COc1cc(C(CO)C(O)c2cc(OC)c(O)c(OC)c2)ccc1O | IIIB |  | MTT | >200 µg/mL
Cc1cn([C@H]2C[C@H](N=[N+]=[N-])[C@@H](CO)O2)c(=O)[nH]c1=O |  |  | p24 / ELISA / antigen | 0.04655 µM
COc1cc([C@H]2c3cc(O)c(OC)cc3C[C@@H](CO)[C@@H]2CO)ccc1O | IIIB |  | MTT | >200 µg/mL
CC(=O)OC(C)(C)CCC(=O)[C@](C)(O)[C@H]1[C@H](O)C[C@@]2(C)[C@@H]3CC=C4[C@@H](C[C@H](O)[C@@H](O)C4(C)C)[C@]3(C)C(=O)C[C@]12C |  |  | cytopathic effect / MTT | 84.7 µM
Oc1ccc(N=Nc2ccc(N=Nc3ccc(O)c4ncccc34)cc2)c2cccnc12 | IIIB |  | syncytia | 0.45 µg/mL
Cc1cn([C@H]2C[C@H](N=[N+]=[N-])[C@@H](CO)O2)c(=O)[nH]c1=O | IIIB |  | cytopathic effect | 0.0031 µg/mL
Cc1ccc(S(=O)(=O)c2c(C(=O)NNCCO)[nH]c3ccc(Cl)cc23)cc1 | IIIB |  | cytopathic effect / MTT | 0.1 µM

6 of the rows above, restated:

SMILES | strain | changes | method | value
CO[C@H]1C=C2C(C[C@H](O)[C@@H](O)C2(C)C)[C@]2(C)C(=O)C[C@]3(C)C([C@@](C)(O)C(=O)CCC(C)(C)OC(C)=O)[C@H](O)C[C@@]3(C)[C@H]12 |  |  | cytopathic effect / MTT | 94.2 µM
CCN1c2ncc(CCOc3ccc(-n4cc(C(=O)O)nn4)cc3C)cc2C(=O)N(C)c2cccnc21 | IIIB |  | p24 | >0.05 µM
O=S(=O)(Oc1ccc(N=Nc2ccc(N=Nc3ccc(OS(=O)(=O)c4ccc(Br)cc4)c4ncccc34)cc2)c2cccnc12)c1ccc(Br)cc1 | IIIB |  | syncytia | 17.11 µg/mL
Oc1ccc(N=Nc2ccc(N=Nc3ccc(O)c4ncccc34)cc2)c2cccnc12 | IIIB |  | syncytia | 0.45 µg/mL
CCOP(=O)(N[C@@H](C)C(=O)OCc1ccccc1)OC[C@H]1O[C@@H](n2cc(C)c(=O)[nH]c2=O)C[C@@H]1N=[N+]=[N-] | RF |  | ELISA | 3 µM
COC(=O)C[C@](O)(Cc1ccc(O)c(OC)c1)C(=O)OC | IIIB |  | MTT | >200 µg/mL